A mixed list of measured activities; the numbers were collected in NIAID ChemDB.

Common to all: growth or infection tests; organism: Influenza B virus

Lines come from different laboratories, so protocols vary. Blank or dashed fields: not listed here. ECn is the concentration giving n% inhibition of infection, replication or growth.

structure | strain | endpoint | read by | cells | result
CC(=O)N[C@H]1[C@H]([C@H](O)[C@H](O)CO)OC(C(=O)O)=C[C@@H]1N | B/Victoria/102/85 | EC50 | plaque count | MDCK | 0.065 µM
NC(=O)c1nc(F)c[nH]c1=O | MIE/1/93 | EC50 | plaque count | MDCK | 0.039 µg/mL
CCOC(=O)C12CC3CC(CC(C3)C1)C2 | - | EC50 | cytopathic effect | MDCK | >196 µM
NC12CC3CC(CC(C3)C1)C2 | B/Singapore/222/79 | EC50 | plaque count | MDCK | >90 µg/mL
Nc1ccc(S(=O)(=O)O)c2ccccc12 | Singapore/222/79 | EC50 | cytopathic effect | MDCK | >200 µM
C#Cc1c(C(N)=O)ncn1[C@@H]1O[C@H](CO)[C@@H](O)[C@H]1O | B/Singapore | EC50 | plaque count | MDCK | 0.85 µg/mL
NC(=O)c1ncn([C@@H]2O[C@H](CO)[C@@H](O)[C@H]2O)n1 | B/University of Maryland/1/71 | MIC | - | - | 0.05 µg/mL
CN(C)CCN1CCCCC1C12CC3CC(CC(C3)C1)C2 | - | EC50 | cytopathic effect | MDCK | >616 µM
Nc1ccn([C@@H]2C[C@@H](O)[C@H](CO)O2)c(=O)n1 | - | EC50 | - | MDCK | >100 µM
CN1CCCCCC1C12CC3CC(CC(C3)C1)C2 | - | EC50 | cytopathic effect | MDCK | >35 µM
C[C@@H](O)C1=C[C@@H](n2cnc3c(N)ncnc32)[C@H](O)[C@@H]1O | B/Singapore/222/79 | EC50 | plaque count | MDCK | >100 µg/mL
NC(=O)c1ncn([C@@H]2O[C@H](CO)[C@@H](O)[C@H]2O)n1 | B/HK/5/72 | EC50 | cytopathic effect | MDCK cells | 9 µM
NC(=O)c1ncn([C@@H]2O[C@H](CO)[C@@H](O)[C@H]2O)n1 | Singapore/22/79 | EC50 | cytopathic effect | MDCK | 6 µg/mL
NC1CCCCCCC1 | B/University of Maryland/1/71 | MIC | - | - | >25 µg/mL
NC(=O)c1ncn([C@@H]2O[C@H](CO)[C@@H](O)[C@H]2O)n1 | Singapore | EC50 | cytopathic effect | MDCK | 9 µg/mL
Cc1cn([C@@H]2C[C@@H](O)[C@H](CO)O2)c(=O)[nH]c1=O | - | EC50 | - | MDCK | >100 µM
CCOC(=O)C1=C[C@@H](OC2CCCCC2)[C@H](NC(C)=O)[C@@H](N)C1 | B/HK/5/72 | EC50 | cytopathic effect | MDCK cells | 45 µM
C1CNC(C23CC4CC(CC(C4)C2)C3)C1 | - | EC50 | cytopathic effect | MDCK | >1035 µM
CC(C)CCCC(C)C1CCC2C3CC=C4CC(OC(=O)Nc5ccc(S(=O)(=O)O)c6cccc(S(=O)(=O)O)c56)CCC4(C)C3CCC12C | Singapore/222/79 | EC50 | cytopathic effect | MDCK | >100 µM
NC12CC3CC(CC(C3)C1)C2 | B/HK/5/72 | EC50 | cytopathic effect | MDCK cell | >500 µM
NC(=O)c1ncn([C@@H]2O[C@H](CO)[C@@H](O)[C@H]2O)n1 | - | EC50 | cytopathic effect | MDCK | >19.9 µM
Nc1ncnc2c1ncn2[C@@H]1C[C@@H](O)[C@H](CO)O1 | - | EC50 | - | MDCK | >100 µM
C1CCC(C23CC4CC(CC(C4)C2)C3)NC1 | - | EC50 | cytopathic effect | MDCK | >978 µM
Nc1ncnc2c1ncn2[C@@H]1C[C@@H](O)[C@H](CO)O1 | - | EC50 | - | MDCK | >100 µM
CC(C)CCCC(C)C1CCC2C3CC=C4CC(OC(=O)Nc5ccc(S(=O)(=O)O)c6ccccc56)CCC4(C)C3CCC12C | Singapore/222/79 | EC50 | cytopathic effect | MDCK | >100 µM
Nc1nccc2c1ncn2[C@@H]1C[C@H](CO)[C@@H](O)[C@H]1O | - | EC50 | cytopathic effect | MDCK | >16 µg/mL
NC(=O)c1c[se]c([C@@H]2O[C@H](CO)[C@@H](O)[C@H]2O)n1 | B/Singapore/222/79 | EC50 | - | MDCK | 19 µM

3 of the rows above, restated:

structure,strain,endpoint,read by,cells,result
NC(=O)c1ncn([C@@H]2O[C@H](CO)[C@@H](O)[C@H]2O)n1,Singapore/22/79,EC50,cytopathic effect,MDCK,6 µg/mL
C1CCC(C23CC4CC(CC(C4)C2)C3)NC1,-,EC50,cytopathic effect,MDCK,>978 µM
NC12CC3CC(CC(C3)C1)C2,B/Singapore/222/79,EC50,plaque count,MDCK,>90 µg/mL